A mixed list of measured activities; the numbers were collected in NIAID ChemDB.

All rows: whole-cell or culture tests; species: Mycobacterium tuberculosis

ECn is the concentration giving n% inhibition of infection, replication or growth.

SMILES	measure	dose	strain	method	changes	result
C=CCOc1cccc(/C=C2/NC(=S)NC2=O)c1	EC50		H37Rv			<6.25 µg/mL
CCCC(=O)N1CCN(c2ccc(C(C)=O)cc2)CC1	MIC50		Wild type without biotin	turbidity		>50 µM
c1ccc(CCN2CCN([C@@H](Cc3ccccc3)CN3CCCC3CN3CCNC[C@H]3Cc3ccccc3)C[C@@H]2Cc2ccccc2)cc1	MIC		H37Rv	broth dilution		3.9 µg/mL
C=C1C(=O)[C@@]23[C@H](O)C[C@@H]4C(C)(C)CC[C@@H](OC(C)=O)[C@@]4(C)[C@@H]2CC[C@@H]1[C@H]3O	MIC		H37Ra	resazurin / absorbance		3.125–6.25 µg/mL
O=C(N=Nn1c(O)c(O)c2ccccc21)c1cccnc1	inhibition	6.25 µg/mL	H37Rv	resazurin		57%
CO[C@@H]1[C@H](O)[C@@H](C)O[C@@H](OC[C@H](C)[C@H]2OC(=O)[C@H](C)[C@@H](O[C@H]3C[C@@H](C)N(CCC(C)C)C[C@H](C)O3)[C@H](C)[C@@H](O[C@@H]3O[C@H](C)CC(=O)[C@H]3O)[C@@H](C)C[C@](C)(OC(=O)N3C[C@@H](C)O[C@@H](C)C3)C(=O)[C@H](C)[C@H](OC(=O)CC(C)C)[C@H]2C)[C@@H]1OC	MIC		H37Rv	resazurin		1 µM
COC(=O)c1nc2[nH]n(-c3ccccc3)c(=O)c2c(C(=O)OC)c1C(C)C(=O)c1ccccc1	inhibition	12.5 µg/mL	H37Rv	BACTEC		33%
O=C(N=Nn1c(O)c(O)c2ccccc21)c1cc(/C=C\c2ccco2)on1	inhibition	6.25 µg/mL	H37Rv	resazurin		39%
CC(=O)OC[C@@]1(C)CCC[C@]2(C)[C@@H]1C[C@@H](O)[C@@]13C[C@@H](CC[C@@H]21)[C@@H](C)C3=O	MIC		H37Ra	resazurin / absorbance		1.56–3.125 µg/mL
C[C@H]1[C@H](C)CC[C@]2(CO)CC[C@]3(C)C(=CC[C@@H]4[C@@]5(C)CC[C@H](O)C(C)(C)[C@@H]5CC[C@]43C)[C@H]12	MIC		H37Rv			32 µg/mL
O=C1NC(=S)N/C1=C/c1ccc2ccccc2c1	inhibition	6.25 µg/mL	H37Rv			53%
CC1=CC[C@]2(C)CC[C@]3(C)C(CCC4[C@@]5(C)CC[C@H](O)C(C)(C)C5CC[C@]43C)C2[C@@H]1C	MIC		H37Rv			>64 µg/mL
CCCN1C[C@H](C)O[C@@H](O[C@H]2[C@H](C)[C@@H](O[C@@H]3O[C@H](C)CC(=O)[C@H]3O)[C@@H](C)C[C@](C)(OC(=O)N3C[C@@H](C)O[C@@H](C)C3)C(=O)[C@H](C)[C@H](OC(=O)CC(C)C)[C@@H](C)[C@@H]([C@@H](C)CO[C@@H]3O[C@H](C)[C@@H](O)[C@@H](OC)[C@H]3OC)OC(=O)[C@@H]2C)C[C@H]1C	MIC		H37Rv	resazurin		1.14 µM
CC1(C)CC[C@]2(CO)CC[C@]3(C)C(=CCC4[C@@]5(C)CC[C@H](O)C(C)(C)C5CC[C@]43C)C2C1	MIC		H37Rv			>64 µg/mL
CCc1nc(NC(C(=O)O)C(C)C)c2cc(C)sc2n1	EC50		Erdman	resazurin		2.3 µM
C[C@H]1C2C3CCC4[C@@]5(C)CC[C@H](O)C(C)(C)C5CC[C@@]4(C)[C@]3(C)C[C@H](O)[C@@]2(C)C[C@H]2O[C@]21C	MIC		H37Rv			32 µg/mL
CCCCC(O)CN(/N=C/c1ccc([N+](=O)[O-])o1)C(N)=O	MIC bound		H37Rv	BACTEC		>12.5 µg/mL
CCCOc1ccc(/C=C2/NC(=S)NC2=O)cc1	inhibition	6.25 µg/mL	H37Rv			95%
CCc1nc(NCc2ccccc2)c2cc(C)sc2n1	EC50		Erdman	resazurin		11 µM
C[C@H]1[C@H](C)CC[C@]2(C)CC[C@]3(C)C(=CC[C@@H]4[C@@]5(C)CC[C@H](O)C(C)(C)[C@@H]5CC[C@]43C)[C@H]12	MIC		H37Rv			32 µg/mL
CO[C@H]1/C=C/O[C@@]2(C)Oc3c(C)c(O)c4c(=O)c(c5oc6cc(N7CCN(CC(C)C)CC7)cc(=O)c6nc5c4c3=C2O)NC(=O)/C(C)=C\C=C\[C@H](C)[C@H](O)[C@@H](C)[C@@H](O)[C@@H](C)[C@H](OC(C)=O)[C@@H]1C	MBC		2624 (rifampin-sensitive)			0.003 µg/mL
COc1ccc2c(c1)CN(c1ccc([N+](=O)[O-])cc1)CO2	MIC			absorbance		6.7 µg/mL
C=CCn1c(SCc2ccc(Cl)cc2Cl)nnc1-c1ccc(N)cc1	inhibition	6.25 µg/mL	H37Rv			<50%
Cn1c(-c2ccc(/C=N/NC(N)=NCCCCCCN=C(N)N/N=C/c3ccc(-c4c[n+]5ccccc5n4C)cc3)cc2)c[n+]2ccccc12.I.I.[I-].[I-]	MIC bound		H37Rv	BACTEC		≤12.5 µg/mL
Cc1ccccc1N1COc2ccccc2C1	MIC			absorbance		6.1 µg/mL
COc1ccc(NCCc2ccc(-n3ncc(C(=O)NN)c3N)nn2)cc1OC	MIC bound		H37Rv	BACTEC		>12.5 µg/mL
CC(=O)c1ccc(-c2cn(Cc3cccc(Cl)c3)nn2)s1	MIC50		Wild type without biotin	turbidity		>50 µM
O=C(O)CNC(=O)CN1C(=O)CC(NC(=O)OCc2ccccc2)C1=O	MIC bound		H37Rv	BACTEC		>12.5 µg/mL
COc1ccc2c(c1)CN(c1ccccc1[N+](=O)[O-])CO2	MIC			absorbance		5.6 µg/mL
CCOc1ccccc1Nc1cc(Cl)nc(N)n1	MIC bound		H37Rv	BACTEC		>12.5 µg/mL
O=C1CCc2cc(N3CCN(C(=O)c4cccc(Cl)c4)CC3)ccc21	MIC90		BioA overexpression strain	turbidity		49.1 µM
CCc1nc(NCCCc2ccccc2)c2cc(C)sc2n1	EC50		Erdman	resazurin	cydA	0.0062 µM
C=C1C(=O)[C@@]23[C@H](O)C[C@@H]4[C@@](C)(COC(C)=O)CCC[C@@]4(C)[C@@H]2CC[C@@H]1[C@H]3O	MIC		H37Rv	resazurin / absorbance		>50 µg/mL
CCCCCCC(C)c1ccc2c(c1)C(=O)c1nc3ccncc3c(=O)n1-2	inhibition	6.25 µg/mL	H37Rv	resazurin		100%
C=C1C[C@@]23CC[C@@H]4[C@@](C)(COC(C)=O)CCC[C@@]4(C)[C@@H]2[C@H](O)C[C@@H]1C3	MIC		H37Ra	resazurin / absorbance		25–50 µg/mL
C=C1C(=O)OC(C)(C)C1c1ccccc1	inhibition	12.5 µg/mL	H37Rv	BACTEC		95%
C=C1C(=O)[C@@]23CC[C@@H]4[C@@](C)(CO)CCC[C@@]4(C)[C@@H]2CC[C@@H]1C3	MIC		H37Ra	resazurin / absorbance		25–50 µg/mL
CO[C@H]1/C=C/O[C@@]2(C)Oc3c(C)c(O)c4c(O)c(c(/C=N/N5CCN(C6CCCC6)CC5)c(O)c4c3C2=O)NC(=O)/C(C)=C\C=C\[C@H](C)[C@H](O)[C@@H](C)[C@@H](O)[C@@H](C)[C@H](OC(C)=O)[C@@H]1C	MIC		L192			0.1 µg/mL
C=CCOc1ccc(/C=C2/NC(=S)NC2=O)cc1	inhibition	6.25 µg/mL	H37Rv			93%
CC(C)C1C(C(N)=O)C(=O)OC1(C)C	inhibition	12.5 µg/mL	H37Rv	BACTEC		-15%
Cn1c(SCc2ccc(Cl)cc2Cl)nnc1-c1ccc(N=Cc2ccc(O)cc2)cc1	EC50		H37Rv			>6.25 µg/mL
CC(=O)c1ccc(N2CCC(C(=O)c3cccc(Cl)c3)CC2)cc1	MIC90		Wild type without biotin	turbidity		>50 µM
S=C1NC[C@H](Cc2ccccc2)N1C[C@@H]1CCCN1C[C@H](Cc1ccccc1)N1C[C@H](Cc2ccccc2)N(CC23CC4CC(CC(C4)C2)C3)C1=S	MIC		H37Rv	broth dilution		3.13 µg/mL
Cn1c(SCc2ccccc2)nnc1-c1ccc(N)cc1	EC50		H37Rv			>6.25 µg/mL
CC(=O)c1ccc(N2CCN(C(=O)c3cccc(Cl)c3)CC2)s1	MIC90		BioA underexpression strain	turbidity		3.8 µM
Cn1c(SCc2ccc(Cl)cc2Cl)nnc1-c1ccc(N=Cc2ccc(F)cc2)cc1	inhibition	6.25 µg/mL	H37Rv			<50%
Cc1cc(=O)c2c(ccc3[nH]c(-c4ccco4)nc32)[nH]1	MIC bound		H37Rv	BACTEC		>12.5 µg/mL
CC(=O)c1ccc(N2CCN(C(=O)c3ccc4c(c3)OCCCO4)CC2)cc1	MIC50		Wild type without biotin	turbidity		>50 µM
CC(C)CCCC(C)C1CCC2C3CC=C4CC(C(=O)NN)CCC4(C)C3CCC12C	MIC bound		H37Rv	BACTEC		>12.5 µg/mL
C=C1C[C@]23C(=O)C[C@@H]4[C@H](CCCC4(C)C)[C@H]2CC[C@H]1[C@@H]3O	MIC		H37Ra	resazurin / absorbance		25–50 µg/mL
O=C(c1cccc(Cl)c1)N1CCN(c2ccc(-c3ccccn3)cc2)CC1	MIC50		BioA underexpression strain	turbidity		>50 µM
O=c1oc2cccc(O)c2s1	inhibition	12.5 µg/mL	H37Rv	BACTEC		22%
CO[C@@H]1[C@H](O)[C@@H](C)O[C@@H](OC[C@H](C)[C@H]2OC(=O)[C@H](C)[C@@H](O[C@H]3C[C@@H](C)N(C)C[C@H](C)O3)[C@H](C)[C@@H](O[C@@H]3O[C@H](C)CC(=O)[C@H]3O)[C@@H](C)C[C@](C)(OC(=O)N3C[C@H](C)O[C@@H](C)C3)C(=O)[C@H](C)[C@H](OC(=O)CC(C)C)[C@H]2C)[C@@H]1OC	MIC		H37Rv	resazurin		2.2 µM
CC1(C)CC[C@]2(C)[C@@H](O)C[C@]3(C)C(=CCC4[C@@]5(C)CC[C@H](O)C(C)(C)[C@@H]5CC[C@]43C)[C@@H]2C1	MIC		H37Rv			4 µg/mL
CC(C)c1ccc(/C=C2/NC(=S)NC2=O)cc1	inhibition	6.25 µg/mL	H37Rv			89%
Cc1c2c(cc3c4ccccc4n(CC4CO4)c13)C(c1ccc(Cl)cc1)=NCC2	inhibition	6.25 µg/mL	H37Rv	resazurin		41%
CC1CCC(CN2CCN([C@@H](Cc3ccccc3)CN3CCCC3CN3CCNC[C@@H]3Cc3ccccc3)C[C@@H]2Cc2ccccc2)CC1	MIC		H37Rv	broth dilution		3.9 µg/mL
CCCCNc1nc(CC)nc2sc(C)cc12	EC50		Erdman	resazurin	cydA	0.32 µM
Nc1nc(-c2ccc(Cl)cc2)c(N=Nc2cccc([N+](=O)[O-])c2)s1	inhibition	6.25 µg/mL	H37Rv	BACTEC		0%
CC(=O)c1ccc([N+](=O)ONNC(=O)c2ccco2)cc1	inhibition	6.25 µg/mL	H37Rv	resazurin		62%
NNC(=O)c1ccncc1	MIC50		19 strains			0.1 µg/mL
O=C(NNC(=O)c1ccc(Cl)cc1)c1ccc(Cl)cc1	inhibition	12.5 µg/mL	H37Rv	BACTEC		2%
Cc1ccc(-n2c(SCc3ccccc3)nnc2-c2ccc(N=Cc3ccc(Cl)cc3)cc2)cc1	inhibition	6.25 µg/mL	H37Rv			<50%
CCOC(=O)Oc1cc2c(ccn2C)c2c1c1ccccc1n2C(=O)OCC	MIC bound		H37Rv	BACTEC		>12.5 µg/mL
CO[C@H]1/C=C/O[C@@]2(C)Oc3c(C)c(O)c4c(O)c(c5c(c4c3C2=O)NC2(CCN(CC(C)C)CC2)N=5)=NC(=O)/C(C)=C\C=C\[C@H](C)[C@H](O)[C@@H](C)[C@@H](O)[C@@H](C)[C@H](OC(C)=O)[C@@H]1C	MIC		2831 (rifampin-sensitive)			0.025 µg/mL
Cc1cnc(C#N)c(C#N)n1	MIC bound		H37Rv	BACTEC		>12.5 µg/mL
C=C(CCC=C(C)C)C1CC[C@]2(C)C1CC[C@@H]1[C@@]3(C)CC[C@H](O)C(C)(C)[C@@H]3CC[C@]12C	MIC		H37Rv			32 µg/mL
O=[N+]([O-])c1ccc(-c2nc(Cl)c3c(n2)CCCC3)o1	inhibition	12.5 µg/mL	H37Rv	BACTEC		94%
C=C1C(=O)[C@]23C[C@H]1CC[C@H]2[C@]1(C)CCCC(C)(CO)[C@H]1C[C@H]3O	MIC		H37Rv	resazurin / absorbance		12.5–25 µg/mL
COc1ccccc1NC(=O)C(N=Nc1ccc(-c2nc3ccc(C)c(S(=O)(=O)O)c3s2)cc1S(=O)(=O)O)C(C)=O	MIC		H37Rv	BACTEC		≥12.5 µg/mL
Cc1ccc(-n2c(SCc3ccc(Cl)cc3Cl)nnc2-c2ccc(N=Cc3ccc(Cl)cc3)cc2)cc1	EC50		H37Rv			>6.25 µg/mL
CC(=O)OC1(C#N)CC2OC1C1C2N1C(=O)OC(C)(C)C	inhibition	12.5 µg/mL	H37Rv	BACTEC		26%
CC(=O)c1ccc(N2CCC(C(=O)c3ccc4c(c3)OCO4)CC2)cc1	MIC50		BioA overexpression strain	turbidity		>50 µM

For reference, 6 entries again:

{"SMILES": "CCCCNc1nc(CC)nc2sc(C)cc12", "measure": "EC50", "strain": "Erdman", "method": "resazurin", "changes": "cydA", "result": "0.32 µM"}
{"SMILES": "Cc1ccc(-n2c(SCc3ccc(Cl)cc3Cl)nnc2-c2ccc(N=Cc3ccc(Cl)cc3)cc2)cc1", "measure": "EC50", "strain": "H37Rv", "result": ">6.25 µg/mL"}
{"SMILES": "C=CCOc1cccc(/C=C2/NC(=S)NC2=O)c1", "measure": "EC50", "strain": "H37Rv", "result": "<6.25 µg/mL"}
{"SMILES": "O=c1oc2cccc(O)c2s1", "measure": "inhibition", "dose": "12.5 µg/mL", "strain": "H37Rv", "method": "BACTEC", "result": "22%"}
{"SMILES": "CC(=O)c1ccc(-c2cn(Cc3cccc(Cl)c3)nn2)s1", "measure": "MIC50", "strain": "Wild type without biotin", "method": "turbidity", "result": ">50 µM"}
{"SMILES": "O=C(NNC(=O)c1ccc(Cl)cc1)c1ccc(Cl)cc1", "measure": "inhibition", "dose": "12.5 µg/mL", "strain": "H37Rv", "method": "BACTEC", "result": "2%"}

a–b is a range or a potency band. Percent inhibition refers to the dose given; in toxicity tests it is the harm to the cells. Blank or dashed fields: not listed here. MIC50, MIC90 and the like: level of inhibition, or share of isolates inhibited. Lines come from different laboratories, so protocols vary. MIC bound: limit read from a one-dose screen.